Measured values from several laboratories, pooled; numbers as filed in NIAID ChemDB.

All rows: toxicity to cultured cells; measure: CC50

Lines come from different laboratories, so protocols vary. CCn is the concentration with n% toxicity to the cells. Two numbers with a dash give a range or band. An empty or dashed field is not shown.

SMILES	cells	read by	value
Nc1ncnc2c1ncn2CCOCP(=O)(O)O	HSB-2	MTT	277 µM
CC(C)=CC[C@H]1C[C@]2(C[C@H]3CCC(C)(C)C=C3C)C(=O)C3=C(OC(C)(C)CC3)[C@@](C(=O)c3ccccc3)(C2=O)C1(C)C	P-388	sulforhodamine / absorbance	>50 µM
COc1cc(OC(C)C(C)(C)C)cc(OC)c1/C=C/COC(C)C(C)(C)C	C8166 cells	MTT	3.03 µM
Cc1sc(N=C(Nc2ccccc2)Nc2ccccc2)nc1-c1ccccc1	VERO	-	6.67 µg/mL
CC(=O)NC[C@H]1CN(c2ccc(N3CCN(c4ccc5nccn5n4)CC3)c(F)c2)C(=O)O1	THP-1	MTT	>100 µg/mL
CCc1cn([C@H]2C[C@H](N=[N+]=[N-])[C@@H](CO)O2)c(=O)[nH]c1=O	BFU-E	-	5 µM
COc1cc(/C=C/C(=O)O[C@H]2[C@H](O)[C@@H](OC3OCC(O)(CO)C3O)[C@H](OCCc3ccc(O)cc3)O[C@@H]2CO)ccc1O	MDA-MB-231	MTT	8.3 µM
Nc1nc(=O)n(CCOCP(=O)(O)O)cc1-c1ccccc1	HB611	-	>200 µM
O=[N+]([O-])c1cc(Cl)c(Cl)cc1[N+](=O)[O-]	E6SM	-	4 µg/mL
NC(=O)c1c[nH]c2cc(-c3ccncc3)ccc2c1=O	VERO	-	>12.5 µg/mL
CC(C)=CC[C@H]1C[C@@]2(C[C@H]3CCC(C)(C)C=C3C)C(=O)[C@](C(=O)c3ccccc3)(C(=O)C3=C2OC(C)(C)C=C3)C1(C)C	MCF-7	sulforhodamine / absorbance	>50 µM
Cc1occc1C(=S)Nc1ccc(Cl)c(/C=N/OC(C)C)c1	VERO	-	6.9 µg/mL
O=c1c(O)c(-c2ccc(O)c(O)c2)oc2cc(O)cc(O)c12	BCC-1/KMC	-	496.9 µg/mL
Nc1ccn([C@H]2CO[C@@H](CO)S2)c(=O)n1	CBMC	-	>500 µM
Cc1nc2nc(C)n(CCN3CCOCC3)c(=O)c2c(-c2cccc([N+](=O)[O-])c2)c1C(=O)CCCCCCCCCCN1CCC(c2ccccc2)(c2ccccc2)CC1	VERO	-	2.52 µg/mL
OC[C@H]1O[C@@H](n2cnc3cc(Cl)c(Cl)cc32)[C@@H](O)[C@@H]1O	E6SM	-	40 µg/mL
CC(=O)O[C@H]1C(=O)[C@@]2(C)[C@H]([C@H](OC(=O)c3ccccc3)[C@]3(O)C[C@H](OC(=O)[C@H](O)[C@@H](NC(=O)c4ccccc4)c4ccccc4)C(C)=C1C3(C)C)[C@]1(OC(C)=O)CO[C@@H]1C[C@@H]2O	HT-29	MTT	0.007 µM
O=c1[nH]c(=O)n([C@@H]2O[C@H](CO)[C@@H](O)[C@@H]2O)cc1/C=C/Br	CBMC	MTT	148 µM
O=c1[nH]cnc2c1ncn2[C@H]1CC[C@@H](CO)O1	BFU-E	-	500 µM
N=C(N)c1ccc(-c2ccc(-c3ccccc3)o2)cc1	VERO	-	1.5 µg/mL
COc1cc2c(cc1OC)-c1c3c(cc4ccnc(c14)C2=O)OCO3	HT-29	sulforhodamine / absorbance	38.4 µM
CCCS(=O)c1ccc2nc(NC(=O)OC)[nH]c2c1	E6	-	>3 µg/mL
Cc1cn([C@H]2C[C@H](N=[N+]=[N-])[C@@H](CO)O2)c(=O)[nH]c1=O	MRC-9	neutral red	>100 µM
Nc1ncnc2c1ncn2[C@@H]1C[C@@H](O)[C@H](CO)O1	MA-104	-	>100 µM
Cc1cn([C@H]2C[C@H](N=[N+]=[N-])[C@@H](CO)O2)c(=O)[nH]c1=O	P3HR-1	-	200 µM
COc1ccc(C(=O)N2CCN(c3ccc4c(c3)CCC(=O)N4)CC2)cc1OC	Macrophage	-	>100 µg/mL
Cc1cn([C@@H]2C[C@@H](O)[C@H](CO)O2)c(=O)[nH]c1=O	CV-1	-	>100 µM
Nc1nccc2c1ncn2CCOCP(=O)(O)O	HB611	-	87 µM
NC(=S)c1cn([C@H]2C[C@H](O)[C@@H](CO)O2)c2ncnc(N)c12	MEF	-	4 µM
O=C1c2c(O)cc(O)cc2O[C@H](c2ccc(O)cc2)[C@H]1c1c(O)cc(O)c2c(=O)cc(-c3ccc(O)c(O)c3)oc12	HT-29	sulforhodamine / absorbance	>50 µM
Nc1cc(Cl)nc2c1ncn2[C@@H]1O[C@H](CO)C[C@H]1O	Sheep chondrocytes G81092	-	>400 µM
Cl.Cl.O=C(Nc1cccc(C(=O)Nc2ccc(C3=NCCN3)cc2)c1)c1ccc(C2=NCCN2)cc1	VERO	-	>50 µg/mL
CCCc1cc(=O)oc2c3c(c4c(c12)OC(C)(C)C=C4)O[C@H](C)[C@@H](C)[C@@H]3O	AA5	-	10–20 µM
Cc1c2c(c(C)c3c4c(oc13)CCCC4)C=NCC2	VERO	-	3.83 µg/mL
C=CCCC[C@@H]1OC(=O)CNC(=O)[C@H]([C@@H](C)CC)NC(=O)[C@@H]2CCCN2C(=O)[C@H]([C@@H](C)CC)OC(=O)[C@H](Cc2ccccc2)N(C)C(=O)[C@H](C(C)C)NC(=O)C1(C)C	MCF-7	MTT	11 µM
CC(=O)NC[C@H]1CN(c2ccc(N3CCN(Cc4nc5ccccc5[nH]4)CC3)c(F)c2)C(=O)O1	THP-1	MTT	>100 µg/mL
CO[C@H]1O[C@@H](n2ccc(=O)[nH]c2=O)C[C@@H]1N=[N+]=[N-]	CFU-GM	-	10 µM
Nc1ccn([C@@H]2CO[C@H](CO)S2)c(=O)n1	CBMC	-	105 µM
S=c1nc(-c2ccco2)[nH][nH]1	THP-1	MTT	>100 µg/mL
C#CCCC[C@@H]1OC(=O)CNC(=O)[C@H]([C@@H](C)CC)NC(=O)[C@@H]2CCCN2C(=O)[C@H](C(C)C)OC(=O)[C@H](Cc2ccccc2)N(C)C(=O)[C@H](C(C)C)NC(=O)C1(C)C	HT-29	MTT	75 µM
CCCCCCCCCCCCCCCCCCNC(=S)/N=C/C(C(=O)Nc1ccccc1C)=C(\C)O	VERO	-	2.29 µg/mL
CO/N=C1/CCN(c2nc(=O)c3cc(C(F)(F)F)cc([N+](=O)[O-])c3s2)CC1N	A-594	MTT	241 µg/mL
O[C@@H]1CC(n2cnc3cc(Cl)c(Cl)cc32)OC[C@@H]1O	E6SM	-	≥100 µg/mL
Clc1ccc(-c2nc(SCC3CC3)n[nH]2)cc1	Panc-1	MTT	>100 µg/mL
OC[C@@H]1C[C@@H](O)[C@H](n2cnc3c(NC4CCCCCC4)ccnc32)O1	MDBK	-	293 µM
N=C(N)c1cn([C@H]2C[C@H](O)[C@@H](CO)O2)c2ncnc(N)c12	MEF	-	17 µM
CCCc1cc(=O)oc2c3c(c4c(c12)OC(C)(C)C=C4)O[C@@H](C)[C@H](C)[C@@H]3O	MM	-	10–20 µM
OC[C@@H]1C[C@@H](O)[C@H](n2cnc3c(NC4CCCCCC4)cc(Cl)nc32)O1	Sheep chondrocytes G81092	-	145 µM
NC(=O)c1cn(-c2ccc(F)cc2)c2cc(-c3ccccc3)ccc2c1=O	VERO	-	>12.5 µg/mL
O=c1c2cc(O)ccc2oc2cc(O)cc(O)c12	HT-29	sulforhodamine / absorbance	>50 µM
Nc1ccn([C@@H]2C[C@@H](O)[C@H](CO)O2)c(=O)n1	CV-1	-	>100 µM
COc1cc(N2CCN(c3ccc(N4C[C@H](CNC(C)=O)OC4=O)cc3F)CC2)nc2nccn12	THP-1	MTT	>100 µg/mL
COC(=O)Nc1nc2ccc(C(=O)c3cccs3)cc2[nH]1	E6	-	0.03 µg/mL
CCn1cc(C2=NCCO2)c(=O)c2ccc(-c3ccncc3)cc21	VERO	-	>12.5 µg/mL
Nc1nc(Cl)nc2c1ncn2[C@H]1C[C@H](O)[C@@H](CO)O1	Sheep chondrocytes G81092	-	<50 µM
CCCCN(CCCC)CCCOC(=O)c1ccc2oc3ccc(C(=O)OCCCN(CCCC)CCCC)cc3c2c1	VERO	-	>125 µg/mL
CO/N=C1\CCCN(c2nc(=O)c3cc(C(F)(F)F)cc([N+](=O)[O-])c3s2)CC1	A-594	MTT	58.3 µg/mL
OC[C@@H]1CC[C@H](n2cnc3c(NC4CC4)ncnc32)O1	Sheep chondrocytes G81092	MTT	280 µM
CCn1cc(C(N)=O)c(=O)c2ccc(I)cc21	VERO	-	>100 µg/mL
CC[C@@H](CO)NCCN[C@@H](CC)CO	THP-1 monocytes	-	350 µg/mL
CC1=C(C)C(=O)C(CC2=C(C)C(=O)C(C)=C(C)C2=O)=C(C)C1=O	VERO	-	7.1 µg/mL
NC(=O)c1cn(CCO)c2cc(-c3ccncc3)ccc2c1=O	VERO	-	>50 µg/mL
Nc1nc2c(ncn2COC(CO)CO)c(=O)[nH]1	P3HR-1	-	200 µM
NC(=O)c1cn(Cc2ccc(Cl)c(Cl)c2)c2cc(-c3ccncc3)ccc2c1=O	VERO	-	>100 µg/mL
COc1cc(-c2ccccc2)c(OC)c(OC)c1O	HT-29	sulforhodamine / absorbance	>50 µM
Nc1nc(Cl)nc2c1ncn2[C@H]1CC[C@@H](CO)O1	Sheep chondrocytes G81092	MTT	195 µM
FC(F)(F)c1ccccc1-c1nc(=S)[nH][nH]1	Panc-1	MTT	>100 µg/mL
Nc1ccn([C@H]2CC[C@@H](CO)O2)c(=O)n1	Macrophage	-	67.5 µM
COc1ccc(-n2cc(C(N)=O)c(=O)c3ccc(-c4ccncc4)cc32)cc1	VERO	-	>25 µg/mL
COc1cc(CCOC(=O)CCC(=O)CO)cc(O)c1OC	MDA-MB-231	MTT	3.57 µM
CC(C)=CC[C@H]1C[C@@]2(C[C@H]3CCC(C)(C)C=C3C)C(=O)[C@](C(=O)c3ccccc3)(C(=O)C3=C2OC(C)(C)CC3)C1(C)C	P-388	sulforhodamine / absorbance	14.03 µM
Nc1nccc2c1ncn2C[C@H]1COP(=O)(O)CO1	HB611	-	>200 µM
Nc1ncnc2c1ncn2[C@H]1CC[C@@H](CO)O1	Sheep chondrocytes G81092	MTT	>400 µM
Nc1nc(N)c2ncn(CCOCP(=O)(O)O)c2n1	HB611	-	122 µM
CO[C@@H]1C[C@@H](C[C@H]2CC[C@H](C)[C@H]([C@@H](C)C(=O)O)O2)O[C@]2(O[C@](C)([C@H]3CC[C@@](C)([C@@H]4O[C@@H]([C@H]5O[C@@](O)(CO)[C@H](C)C[C@@H]5C)C[C@@H]4C)O3)C[C@H]2C)[C@@H]1C	VERO	-	0.07 µg/mL
Nc1ccn([C@H]2CO[C@@H](CO)O2)c(=O)n1	P3HR-1	-	150 µM
OCCc1ccc(O)c(O)c1	HL-60	MTT	9.02 µM
N=C(N)c1cn([C@@H]2O[C@H](CO)[C@@H](O)[C@@H]2O)c2ncnc(N)c12	MEF	-	235 µM
O=C(O)CP(=O)(O)O	CBMC	MTT	332 µM
Fc1ccc(-c2nc(SCCCCBr)n[nH]2)cc1	Panc-1	MTT	>100 µg/mL
Nc1nc(=O)n([C@@H]2CC[C@H](CO)O2)cc1F	Macrophage	-	>100 µM
OCCc1ccc(O[C@@H]2O[C@H](CO)[C@@H](O)[C@H](O)[C@H]2O)c(O)c1	MDA-MB-231	MTT	19.43 µM
N#CC1(c2nc3ccccc3o2)C(=O)C(=O)N(c2ccc(Cl)c(Cl)c2)C(=O)C1=O	VERO	-	>10 µg/mL
Fc1ccc(-c2nc(SCC3CC3)n[nH]2)cc1	Panc-1	MTT	>100 µg/mL
Nc1ccn(CCOCCP(=O)(O)O)c(=O)n1	HB611	-	>400 µM
S=C(S)NCCCNC(=S)S	VERO	-	0.35 µg/mL
CCON=C1CN(c2nc(=O)c3cc(C(F)(F)F)cc([N+](=O)[O-])c3s2)C1	A-594	MTT	707 µg/mL
Nc1ncc2c(ncn2COC(CO)CO)n1	HSB-2	MTT	0.62 µM
C/C=C/c1ccc2c(c1)[C@H](C)[C@@H](c1ccc(O)cc1)O2	HT-29	sulforhodamine / absorbance	41.5 µM
CN=C(NN(C)C)c1ccc(NC(=O)c2ccc(C(=O)Nc3ccc(C(=NC)NN(C)C)cc3)cc2)cc1	VERO	-	>50 µg/mL
Nc1ccn([C@H]2C[C@H](F)[C@@H](CO)O2)c(=O)n1	CFU-GM	-	100 µM
COC(=O)Nc1nc2ccc(Sc3ccccc3)cc2[nH]1	E6	-	0.2 µg/mL
Cn1cc(NC(=O)c2cc(NC(=O)CN=C(N)N)cn2C)c(C(=O)NCCC(=N)N)c1	PRK	-	40 µg/mL
CN(CC1CCCCC1)C1CCN(c2nc(=O)c3cc(C(F)(F)F)cc([N+](=O)[O-])c3s2)C1	A-594	MTT	67.46 µg/mL
CCOC(=O)NC(C(=O)OCC)(N1CCN(c2cc3c(cc2F)c(=O)c(C(=O)O)cn3CC)CC1)C(F)(F)F	VERO	-	>62.5 µg/mL
NC(=S)c1cn([C@@H]2O[C@H](CO)[C@@H](O)[C@@H]2O)c2ncnc(N)c12	MEF	-	1.7 µM

For reference, 8 entries again:

SMILES,cells,read by,value
Cc1cn([C@H]2C[C@H](N=[N+]=[N-])[C@@H](CO)O2)c(=O)[nH]c1=O,P3HR-1,-,200 µM
NC(=S)c1cn([C@H]2C[C@H](O)[C@@H](CO)O2)c2ncnc(N)c12,MEF,-,4 µM
Cc1cn([C@@H]2C[C@@H](O)[C@H](CO)O2)c(=O)[nH]c1=O,CV-1,-,>100 µM
CO/N=C1\CCCN(c2nc(=O)c3cc(C(F)(F)F)cc([N+](=O)[O-])c3s2)CC1,A-594,MTT,58.3 µg/mL
CN=C(NN(C)C)c1ccc(NC(=O)c2ccc(C(=O)Nc3ccc(C(=NC)NN(C)C)cc3)cc2)cc1,VERO,-,>50 µg/mL
Cc1c2c(c(C)c3c4c(oc13)CCCC4)C=NCC2,VERO,-,3.83 µg/mL
OCCc1ccc(O)c(O)c1,HL-60,MTT,9.02 µM
Cc1sc(N=C(Nc2ccccc2)Nc2ccccc2)nc1-c1ccccc1,VERO,-,6.67 µg/mL